Compound potency records, mixed from different reports. Data source: NIAID ChemDB in PubChem.

Common to all: tests in culture; species: Mycobacterium avium

An empty or dashed field is not shown. a–b is a range or a potency band. MIC50, MIC90 and the like: level of inhibition, or share of isolates inhibited. Lines come from different laboratories, so protocols vary. ECn: concentration that inhibits the pathogen or its effect by n%.

SMILES	strain	method	read-out	conditions	value
O=[N+]([O-])c1ccc(Sc2nc3c(Br)c(Br)c(Br)c(Br)c3[nH]2)cc1	MY330/88		MIC		>250 µM
Cc1c(-c2nc3cc(C(C)(C)C)cc(C(C)(C)C)c3o2)[nH]c2ccccc12	MY330/88		MIC		250 µM
CCOc1cccc(NC(=O)OCCC[NH+]2CCCCC2)c1	MY330/88		MIC		250 µM
c1ccc(CCSc2ncnc3ccccc23)cc1	CNCTC MY66/72		MIC		32 µM
CCCCCCCNC(=O)NNC(=O)c1ccncc1	MY330/88	broth dilution	MIC100	21 d	62.5 µM
NNC(=O)c1ccncc1	3350-4		MIC		1.25 µg/mL
COc1ccc(-n2c(=O)oc3cc(Cl)ccc3c2=O)cc1	CNCTC MY330/88		MIC		8 µM
CCCCC(CC)CNC[C@H]1O[C@H](O[C@H]2O[C@H](CO)[C@@H](O)[C@H](O)[C@H]2O)[C@H](O)[C@@H](O)[C@@H]1O	NJ211		MIC		>128 µg/mL
CCCCCCCCCCCCOc1cccc(NC(=O)OCCC[NH+]2CCCCC2)c1	MY330/88		MIC		32 µM
O=C(O)c1cn(C2CC2)c2cc(N3CCN(Cc4ccccc4)CC3)c(F)cc2c1=O			MIC50		4 µg/mL
Clc1ccc(/C(Cn2ccnc2)=N/OCc2cccc3ccccc23)c(Cl)c1	CIP103317		MIC		>16 µg/mL
O=c1ccn([C@@H]2O[C@H](CO)[C@@H](O)[C@H]2F)c(=O)[nH]1	ATCC 25291		EC50		>50 µg/mL
Cc1ccc2oc(=O)n(-c3cccc([N+](=O)[O-])c3)c(=O)c2c1	CNCTC MY330/88		MIC		32 µM
NC(=S)c1cc(SCc2cccc([N+](=O)[O-])c2)ccn1	CNCTC MY330/88		MIC		7.94 µM
CCCCCCCCCCCCNC[C@H]1O[C@H](O[C@H]2O[C@H](CNCCCCCCCCCCCC)[C@@H](O)[C@H](O)[C@H]2O)[C@H](O)[C@@H](O)[C@@H]1O	NJ3009		MIC		8 µg/mL
CCCCCCCCCCOc1ccccc1NC(=O)OCC[NH+]1CCCC1	MY330/88		MIC		16 µM
N#Cc1cc(SCc2ccc(Cl)c(Cl)c2)ccn1	CNCTC MY330/88		MIC		30.9 µM
O=C(Oc1ccc(Cl)cc1C(=O)Nc1ccc(Cl)c(Cl)c1)c1cnccn1	330/88		MIC	21 d	16 µM
FC(F)(F)C(F)(F)C(F)(F)C(F)(F)c1nc2cc(Cl)c(Cl)cc2[nH]1	MY330/88		MIC		4 µM
O=C(Oc1cc(Cl)ccc1C(=O)Nc1ccc(Cl)cc1)c1ccccc1	330/88	broth dilution	MIC	21 d	4 µM
NC(=S)c1cc(SCc2cc([N+](=O)[O-])cc([N+](=O)[O-])c2)ccn1	CNCTC MY330/88		MIC		7.94 µM
CCCCCC(N)=NC[C@H]1O[C@H](O[C@H]2O[C@H](CN=C(N)CCCCC)[C@@H](O)[C@H](O)[C@H]2O)[C@H](O)[C@@H](O)[C@@H]1O	NJ211		MIC		>128 µg/mL
CN[C@@H]1[C@H](O[C@H]2[C@H](O[C@H]3[C@H](O)[C@@H](O)[C@H](N=C(N)N)[C@@H](O)[C@@H]3N=C(N)N)O[C@@H](C)[C@]2(O)C=O)O[C@@H](CO)[C@H](O)[C@H]1O	100 strains		MIC90		5.8 µg/mL
O=c1[nH]c(=O)n([C@H]2O[C@@H](CO)[C@H](O)[C@@H]2O)cc1Br	ATCC 25291		EC50		>50 µg/mL
O=[N+]([O-])c1cc(Sc2nc3ccc(Cl)cc3[nH]2)cc([N+](=O)[O-])c1	MY330/88		MIC		32 µM
CCCCCCCCS(=O)(=O)NC[C@H]1O[C@H](O[C@H]2O[C@H](CNS(=O)(=O)CCCCCCCC)[C@@H](O)[C@H](O)[C@H]2O)[C@H](O)[C@@H](O)[C@@H]1O	NJ3404		MIC		32–64 µg/mL
O=C(NNC(=O)c1ccncc1)Nc1ccc(Br)cc1Br	MY330/88	broth dilution	MIC100	21 d	>125 µM
Clc1ccc(/C(Cn2ccnc2)=N\OCc2ccc(-c3ccccc3)cc2)c(Cl)c1	CIP103317		MIC		16 µg/mL
CC(C)Sc1ncnc2ccccc12	D 5/93		MIC		63 µM
O=C(Oc1ccc(Cl)cc1C(=O)Nc1ccc(C(F)(F)F)cc1)c1cnccn1	330/88		MIC	21 d	4 µM
CCCCCCCCCCCCC(CCCCCCCCCCCC)NC(=O)NC(CCC(=O)O)(CCC(=O)O)CCC(=O)O	VA14		MIC		144 µg/mL
CCCCS(=O)(=O)NC[C@H]1O[C@H](O[C@H]2O[C@H](CNS(=O)(=O)CCC)[C@@H](O)[C@H](O)[C@H]2O)[C@H](O)[C@@H](O)[C@@H]1O	NJ211		MIC		>128 µg/mL
CCc1cn([C@H]2C[C@H](O)[C@@H](CO)O2)c(=O)[nH]c1=O	ATCC 25291		EC50		>50 µg/mL
O=c1oc2ccc(F)cc2c(=O)n1-c1ccc(Cl)cc1	CNCTC MY330/88		MIC		16 µM
Fc1ccc(/C(Cn2ccnc2)=N/OC/C=C/c2ccccc2)cc1	CIP103317		MIC		>16 µg/mL
CCCCC(CC)CNC[C@H]1O[C@H](O[C@H]2O[C@H](CNCC(CC)CCCC)[C@@H](O)[C@H](O)[C@H]2O)[C@H](O)[C@@H](O)[C@@H]1O	NJ211		MIC		16 µg/mL
CCCCCCCN(CCCCCCC)C(=O)NC(CCC(=O)O)(CCC(=O)O)CCC(=O)O	VA14		MIC		36 µg/mL
NC(N)=NC[C@H]1O[C@H](O[C@H]2O[C@H](CN=C(N)N)[C@@H](O)[C@H](O)[C@H]2O)[C@H](O)[C@@H](O)[C@@H]1O	NJ168		MIC		>128 µg/mL
O=[N+]([O-])c1ccc(Sc2nc3c(Cl)cc(Cl)cc3[nH]2)cc1	MY330/88		MIC		4 µM
CC(C)CC(NC(=O)c1nc2c(C(C)(C)C)cc(C(C)(C)C)cc2o1)C(=O)O	MY330/88		MIC		500 µM
O=C(NNC(=O)c1ccncc1)Nc1ccc(Br)cc1F	MY330/88	broth dilution	MIC100	14 d	>125 µM
CCCCCCCC(CCCCCCC)NC(=O)NC(CCC(=O)O)(CCC(=O)O)CCC(=O)O	VA14		MIC		108 µg/mL
COC(=O)c1cnccn1	330/88		MIC	21 d	>500 µM
O=C(Nc1cccc(F)c1)c1cc(Cl)ccc1O	330/88	broth dilution	MIC	14 d	31 µM
Cc1c(F)c(N2CCNC(C)C2)cc2c1c(=O)c(C(=O)O)cn2C1CC1	14-2		MIC		0.25 µg/mL
CCOc1ccc(NC(=O)OCC[NH+]2CCCC2)cc1	MY330/88		MIC		>1000 µM
CC[C@H]1OC(=O)[C@H](C)C(=O)[C@H](C)[C@@H](O[C@@H]2O[C@H](C)C[C@H](N(C)C)[C@H]2O)[C@](C)(OC)C[C@@H](C)C(=O)[C@H](C)[C@H]2N(CCCCn3cnc(-c4cccnc4)c3)C(=O)O[C@]12C	Isolate 1295		MIC		≥40 µg/mL
O=c1oc2ccccc2c(=O)n1-c1ccc(F)cc1	CNCTC MY330/88		MIC		125 µM
CCCCCCCCOc1ccccc1NC(=O)OCCC[NH+]1CCCCC1	MY330/88		MIC		8 µM
CCCCCCCCCCCN(CCCCCCCCCCC)C(=O)NC(CCC(=O)O)(CCC(=O)O)CCC(=O)O	VA14		MIC		54 µg/mL
CCCCCCCCCCCCOc1ccc(NC(=O)OCCC[NH+]2CCCCC2)cc1	MY330/88		MIC		8 µM
Clc1ccc(/C(Cn2ccnc2)=N/OCc2ccc(-c3ccccc3)cc2)cc1	CIP103317		MIC		8 µg/mL
FC(F)(F)C(F)(F)c1nc2cc(Cl)c(Cl)cc2[nH]1	MY330/88		MIC		16 µM
CCCCCCCCCCCCOc1ccccc1NC(=O)OCCC[NH+]1CCCCC1	MY330/88		MIC		16 µM
NNC(=O)c1ccncc1	330/88		MIC	21 d	>250 µM
CCCCCCNC[C@H]1O[C@H](O[C@H]2O[C@H](CNCCCCCC)[C@@H](O)[C@H](O)[C@H]2O)[C@H](O)[C@@H](O)[C@@H]1O	NJ211		MIC		128 µg/mL
CCSc1ncnc2ccccc12	CNCTC MY66/72		MIC		125 µM
N#Cc1cc(SCc2cccc(Br)c2)ccn1	CNCTC MY330/88		MIC		15.85 µM
O=C(NC1CCCCC1)N(C(=O)c1cnccn1)C1CCCCC1	330/88		MIC	14 d	500 µM
CCCCCCOc1ccc(NC(=O)OCCC[NH+]2CCCCC2)cc1	MY330/88		MIC		32 µM
O=[N+]([O-])c1ccc(Sc2nc3c(Br)c(Br)c(Br)c(Br)c3[nH]2)c([N+](=O)[O-])c1	MY330/88		MIC		125 µM
COc1ccc(NC(=O)OCC[NH+]2CCCC2)cc1	MY330/88		MIC		>1000 µM
CCCCCCCCN(CCCCCCCC)C(=O)NC(CCC(=O)O)(CCC(=O)O)CCC(=O)O	VA14		MIC		23 µg/mL
CC(C)CSc1ncnc2ccccc12	CNCTC MY66/72		MIC		63 µM
CN1CCN(c2cc3c(cc2F)c(=O)c(C(=O)O)cn3C2CC2)CC1			MIC50		2 µg/mL
O=C(Oc1cc(Cl)ccc1C(=O)Nc1cccc(Cl)c1)c1ccccc1	330/88	broth dilution	MIC	14 d	8 µM
NNC(=O)c1ccncc1	MY330/88	broth dilution	MIC100	21 d	>250 µM
O=c1[nH]c(=O)n([C@H]2O[C@@H](CO)[C@H](O)[C@@H]2O)cc1I	ATCC 25291		EC50		>50 µg/mL
CCCCOc1ccc(NC(=O)OCC[NH+]2CCCC2)cc1	MY330/88		MIC		125 µM
CC(C)(C)c1cc(C(C)(C)C)c2nc(C(=O)NCC(=O)O)oc2c1	MY330/88		MIC		1000 µM
Cc1ccc(CSc2ccnc(C(N)=S)c2)cc1	CNCTC MY330/88		MIC		15.85 µM
c1ccc(CSc2ncnc3ccccc23)cc1	CNCTC MY66/72		MIC		125 µM
NC(=S)c1cc(SCc2ccc(F)cc2)ccn1	CNCTC MY330/88		MIC		15.85 µM
CC(C)N=c1cc2n(-c3ccc(Cl)cc3)c3ccccc3nc-2cc1Nc1ccc(Cl)cc1	11279		MIC		1 µg/mL
CCCCCCCc1ccc(NC(=O)NNC(=O)c2ccncc2)cc1	MY330/88	broth dilution	MIC100	14 d	32 µM

Repeating the final 10 entries:

SMILES | strain | method | read-out | conditions | value
O=C(Oc1cc(Cl)ccc1C(=O)Nc1cccc(Cl)c1)c1ccccc1 | 330/88 | broth dilution | MIC | 14 d | 8 µM
NNC(=O)c1ccncc1 | MY330/88 | broth dilution | MIC100 | 21 d | >250 µM
O=c1[nH]c(=O)n([C@H]2O[C@@H](CO)[C@H](O)[C@@H]2O)cc1I | ATCC 25291 |  | EC50 |  | >50 µg/mL
CCCCOc1ccc(NC(=O)OCC[NH+]2CCCC2)cc1 | MY330/88 |  | MIC |  | 125 µM
CC(C)(C)c1cc(C(C)(C)C)c2nc(C(=O)NCC(=O)O)oc2c1 | MY330/88 |  | MIC |  | 1000 µM
Cc1ccc(CSc2ccnc(C(N)=S)c2)cc1 | CNCTC MY330/88 |  | MIC |  | 15.85 µM
c1ccc(CSc2ncnc3ccccc23)cc1 | CNCTC MY66/72 |  | MIC |  | 125 µM
NC(=S)c1cc(SCc2ccc(F)cc2)ccn1 | CNCTC MY330/88 |  | MIC |  | 15.85 µM
CC(C)N=c1cc2n(-c3ccc(Cl)cc3)c3ccccc3nc-2cc1Nc1ccc(Cl)cc1 | 11279 |  | MIC |  | 1 µg/mL
CCCCCCCc1ccc(NC(=O)NNC(=O)c2ccncc2)cc1 | MY330/88 | broth dilution | MIC100 | 14 d | 32 µM